# Primary screen of a compound library

From ChEMBL document CHEMBL3988442, “University of Dundee, Small-Polar-MMV Screening Library” (2021).

A: 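Growth of Mycobacterium tuberculosis over 4 days (cholesterol / DPPC medium with tyloxapol); the read-out is not stated. Compounds at 500 µM. The record gives no direction; compounds that gave an IC50 in retests scored well above the rest, so higher reads as more growth inhibition. About 18,000 compounds were tested under these conditions; 5% (about 900) showed 50% or more at least once.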
B: 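Whole-cell growth test on Mycobacterium tuberculosis, read after 3 days in glucose-containing 7H9 medium; the read-out is not stated. Tested at 500 µM. Higher reads as more growth inhibition (inferred: compounds with an IC50 in retests scored well above the rest). Size under these conditions: about 18,000 compounds, about 1,400 of them at 50% or above in at least one test.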

Values are the deposited “Percent Effect”, in %. How 0% and 100% were set is not recorded. Most values in the screen are low, and negative values occur. Many other results are left out here, so strong results are more common than in the screen. A dash means the value is not listed here; it may have been measured.

structure,A,B
CNC(=O)C1CN(C(=O)Cc2ccc(F)cc2)CCO1 (centres undefined),-,4.469%
CN(C)C(=O)CN1CCCC1c1ccc(F)cc1 (centres undefined),56.26%,66.6%
CCOc1cccc(NC(=O)c2cnn(CC)c2)n1,-,-5.321%
CN(Cc1ccc(S(=O)(=O)N(C)C)o1)CC1CC1,19.09%,10.03%
CC(C(N)=O)N1CCC(=Cc2ccccc2)CC1 (centres undefined),90.35%,68.33%
CC(C)(C)OC(=O)N1C[C@@H]2[C@@H](N)[C@@H]2C1,-,16.19%
O=C1OC2(CCNCC2)CN1Cc1ccc(Cl)s1,-,34.53%
Cc1ccc(C(=O)N2CCN(C)CC2C)c(C)c1 (centres undefined),-,25.77%
Cc1ccnc2nc(C(=O)NC(C#N)CC(C)C)nn12 (centres undefined),3.647%,-
NC(=O)CN1CCC(NS(=O)(=O)c2cccs2)CC1,-,29.47%
OCCCN1CCNCC1,-,-8%
CC(C)N(CC(N)=O)CC(=O)N(C1CCCC1)C1CC1,-11.53%,-
CCOc1ncccc1CNC(=O)c1sc(C)nc1C,-,27.72%
O=C(COC(=O)c1ccc2ccccc2n1)NC1CC1,-,0.301%
N#Cc1ccc(CN2CCCN(CCCO)CC2)cc1,33.25%,43.91%
CNC(=O)C(NC(=O)C1CCC1)c1ccccc1 (centres undefined),-,8.516%
COc1ccccc1-c1cc(CO)[nH]n1,20.61%,-
CN1CCN(CC(O)CN(C)c2ccccn2)CC1 (centres undefined),-,8.602%
CCC1(N)CCOCC1,-,-10.5%
Cc1nn(-c2ccccc2)c(C)c1C(=O)N(C)C,-,-14.09%
[H][C@](N)(CO)c1ccccc1,-,2.698%
CN(C)C(=O)CC(N)c1ccccc1 (centres undefined),-,6.584%
C=C(C)CN1CCC(NC(=O)NC2CC2)CC1,-0.6099%,-
CN(C)C1CCCN(C(=O)NCCc2ccco2)C1 (centres undefined),-,14.6%
Cc1ccc(S(=O)(=O)NCCCN)c2cccnc12,-,37.75%
CNC(=O)CN1CCC(NC(=O)Nc2cn[nH]c2)CC1,-,-4.956%
CC(=O)NCCc1ccc(OC(F)F)cc1,-,49.62%
CC[C@H](N)C(=O)N(Cc1cccc(F)c1)C1CC1,17.44%,-
CCN(CC)CCNC(=O)c1cc(C2CC2)[nH]n1,-,17.27%
NC(Cc1ccccc1)C(=O)NC1CC1 (centres undefined),8.344%,-
O=C(NC1CCCOc2ccc(F)cc21)c1c[nH]nn1 (centres undefined),-,27.71%
NCc1ccc(C(N)=O)cc1,-0.5838%,-
CCC(c1cccnc1)N(C)C(=O)CNC (centres undefined),-,7.169%
CN1CCC(NC(=O)C2CC2)CC1,-,-2.734%
COc1ccc(F)cc1C(=O)N1CCC(CN)CC1,19.84%,26.21%
COc1ccc(Cl)c(S(=O)(=O)NCCC(C)N)c1 (centres undefined),-,59.09%
COC(=O)c1ccc(OCC(N)=O)c(Br)c1,-,-7.035%
Cn1cc(Br)cc1C(=O)NCCCNc1ncccn1,-,61.13%
C[C@H]1CN(C(=O)C(C)(C)C)CCN1S(C)(=O)=O,-,-6.786%
CSCC(CCO)NC(=O)NCc1ccccc1Cl (centres undefined),-,34.07%
CC(CO)NC(=O)Nc1nc(-c2ccccc2)ns1 (centres undefined),-,-6.699%
NCc1cc(Cl)ccn1,54.01%,76.78%
O=C(c1ccc(Br)o1)N1CCN(Cc2ccco2)CC1,99.55%,91.71%
O=C(CCc1ccccn1)Nc1ccc2[nH]nnc2c1,-,6.956%
CCS(=O)(=O)N1CCC(C(=O)NCCN(C)C)CC1,5.191%,-
CO[C@H]1CNCC1NC(=O)Cc1cccc(Cl)c1 (some centres undefined),18.88%,22.46%
COc1ccc(NC(=O)C2=CCOCC2)cc1OC,-,14.23%
Nc1nc(-c2c(F)cccc2F)co1,-,77.72%
CC(C)(C)c1noc(CCC(=O)N2CCSCC2)n1,-,52.69%
CCC(NCCn1cc(C)cn1)C(N)=O (centres undefined),-,6.501%
Clc1cnn(CCN2CCCC3(CCOCC3)C2)c1,9.287%,1.184%
CCN(C(=O)Cc1ccsc1)C1CCS(=O)(=O)C1 (centres undefined),-,1.56%
Cc1ccc(CNCc2cscn2)c(N2CCCC2)n1,12.32%,-
Cc1cccc(NC(=O)c2cnccn2)n1,1.165%,-
CCCN1CCC(NCC(O)c2ccncc2)CC1 (centres undefined),-,4.456%
Cn1ncc2c(N)ncnc21,-0.8071%,-
NC1CCCN(Cc2ccccc2OCCO)CC1 (centres undefined),-,24.65%
NCc1csc(-c2ccco2)n1,-19.99%,-
O=S(=O)(CCN1CCCC1)c1ccc(Cl)cc1,-,44.44%
CCc1cccc2c1N(C(=O)[C@@H](N)CC)CC2,-,61.27%
CCN(CCn1cccn1)C(=O)c1cc(CO)ccn1,-,0.8347%
CC(C)(C)C(O)CN (centres undefined),-,7.211%
CCOCCOCC(O)CN (centres undefined),-,2.724%
CCNc1ncc(C(=O)NCc2ccncc2)cn1,-,17.85%
O=C(NC1CC1)c1ccc(S(=O)(=O)N2CCCC2)cc1,-,23.36%
O=C1CCN(CC(=O)c2ccccc2F)CCN1,-,-7.609%
Cc1cccc(CNC(=O)C2=COCCO2)c1Br,-21.79%,-
CC(Cn1cccn1)NC(=O)NCCn1ccnc1 (centres undefined),12.76%,-